Laboratory results as given in patent publication US10357514B2, “Treatment of cancer using anti-CD19 Chimeric Antigen Receptor” (The Trustees of the University of Pennsylvania, priority 2014, dated 2019).

System: A/H1N1/California/07/2009 influenza
Experiment: Serum anti-influenza IgG and IgM before and 4 weeks post influenza vaccination
Assay type: in vivo, human
Conditions: 4 weeks post vaccination

Compound: CO[C@H]1C[C@@H]2CC[C@@H](C)[C@@](O)(O2)C(=O)C(=O)N2CCCC[C@H]2C(=O)O[C@H]([C@H](C)C[C@@H]2CC[C@@H](OCCO)[C@H](OC)C2)CC(=O)[C@H](C)/C=C(\C)[C@@H](O)[C@@H](OC)C(=O)[C@H](C)C[C@H](C)/C=C/C=C/C=C/1C [RAD001, (1R,9S,12S,15R,16E,18R,19R,21R,23S,24E,26E,28E,30S,32S,35R)-1,18-dihydroxy-12-{(1R)-2-[(1S,3R,4R)-4-(2-hydroxyethoxy)-3-methoxycyclohexyl]-1-methylethyl}-19,30-dimethoxy-15,17,21,23,29,35-hexamethyl-11,36-dioxa-4-aza-tricyclo[30.3.1.04,9]hexatriaconta-16,24,26,28-tetraene-2,3,10,14,20-pentaone]
- change from baseline in anti-H1N1 influenza IgG and IgM levels vs placebo: No significant difference
